PubChem BioAssay AID1224833 – University of Georgia – 2016
Shown is one part, drawn at random, of about 12,000 reagents tested. About 5,600 of all reagents (46%) were called active. 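Active calls cover z-scores past 1 in both directions, so they include lowered as well as raised rotavirus replication.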 Entries without a mark were called inactive.

Assay: 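Human genes whose knock-down alters rotavirus replication in monkey cells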 (primary screen)
Cell system: monkey MA104 kidney cells
Knock-down reagent: siRNA pool against human genes, 50 nM
Timing: 48 h knock-down before infection; read 24 h after infection
Treatment: infection with rotavirus strain RV3 two days after transfection; infectious dose for this stage not given
Measurement: 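Rotavirus antigen per well by fluorescent immunoassay, normalised to non-targeting control wells on each plate and given as a standard z-score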
Scale: z-score vs non-targeting control: higher = more rotavirus replication than with non-targeting control
Active means: In these data the active calls have z-score vs non-targeting control at about -1 or lower, or at about 1 or higher
Calls: active = z-score beyond 1 either way; inactive = z-score within 1 of zero

| target gene | z-score vs non-targeting control |
| --- | --- |
| IFNG (GeneID 3458) | -1.36 (active) |
| HGH1 (GeneID 51236) | 0.671 |
| ZNF12 (GeneID 7559) | 0.797 |
| RBMY1J (GeneID 378951) | -0.7 |
| ECHDC1 (GeneID 55862) | 0.738 |
| HSPB3 (GeneID 8988) | -0.0161 |
| SOX17 (GeneID 64321) | -1.61 (active) |
| P2RY12 (GeneID 64805) | -1.13 (active) |
| BLZF1 (GeneID 8548) | -1.17 (active) |
| FAM8A1 (GeneID 51439) | -1.29 (active) |
| WASF1 (GeneID 8936) | -2.25 (active) |
| STPG1 (GeneID 90529) | -1.18 (active) |
| ORC1 (GeneID 4998) | -1.23 (active) |
| NOMO2 (GeneID 283820) | -1.21 (active) |
| RPS19 (GeneID 6223) | -0.909 |
| CEP15 (GeneID 57415) | -0.139 |
| NPBWR2 (GeneID 2832) | -0.599 |
| ZC3H14 (GeneID 79882) | 1.3 (active) |
| HIGD1B (GeneID 51751) | -0.03 |
| OR51Q1 (GeneID 390061) | -1.6 (active) |
| CALD1 (GeneID 800) | -0.327 |
| PKP2 (GeneID 5318) | -0.534 |
| CEMIP (GeneID 57214) | -0.0045 |
| FAM89B (GeneID 23625) | 0.951 |
| C21orf58 (GeneID 54058) | -1.26 (active) |
| OR5L1 (GeneID 219437) | -0.0955 |
| FNDC3A (GeneID 22862) | 1.01 (active) |
| STC1 (GeneID 6781) | -0.295 |
| SAMD4A (GeneID 23034) | -1.17 (active) |
| BCAR3 (GeneID 8412) | -2.1 (active) |
| BLM (GeneID 641) | -0.663 |
| MAFB (GeneID 9935) | -0.484 |
| CEP20 (GeneID 123811) | 0.665 |
| WDCP (GeneID 80304) | 0.899 |
| SLITRK2 (GeneID 84631) | 1.04 (active) |
| PEX11G (GeneID 92960) | -1.45 (active) |
| CSTPP1 (GeneID 79096) | 1.35 (active) |
| CTH (GeneID 1491) | -0.665 |
| CLUH (GeneID 23277) | -2.54 (active) |
| RASAL2 (GeneID 9462) | 0.619 |
| FSD1 (GeneID 79187) | -0.63 |
| RPS14 (GeneID 6208) | 1.14 (active) |
| DDIT4 (GeneID 54541) | 1.04 (active) |
| JMJD1C (GeneID 221037) | -0.717 |
| ADRA1B (GeneID 147) | -1.06 (active) |
| BARHL2 (GeneID 343472) | -0.902 |
| ABCA12 (GeneID 26154) | 1.25 (active) |
| GPR84 (GeneID 53831) | -1.66 (active) |
| CLEC4F (GeneID 165530) | 1.09 (active) |
| LOXL1 (GeneID 4016) | -0.571 |
| EFHD2 (GeneID 79180) | 1.1 (active) |
| DSCR4 (GeneID 10281) | 0.183 |
| IGSF6 (GeneID 10261) | -0.269 |
| RAPH1 (GeneID 65059) | -0.88 |
| INO80 (GeneID 54617) | 0.921 |
| SDF2 (GeneID 6388) | -0.868 |
| PIEZO2 (GeneID 63895) | -1.7 (active) |
| C8orf76 (GeneID 84933) | -0.459 |
| OXT (GeneID 5020) | 0.259 |
| ARCN1 (GeneID 372) | -2.11 (active) |
| WFDC13 (GeneID 164237) | 0.138 |
| TGM2 (GeneID 7052) | 0.798 |
| OLIG3 (GeneID 167826) | -1.29 (active) |
| U2AF1L4 (GeneID 199746) | -2.66 (active) |
| KLHL4 (GeneID 56062) | -0.321 |
| SMAD5 (GeneID 4090) | -0.928 |
| CHD6 (GeneID 84181) | 1.27 (active) |
| ABCB9 (GeneID 23457) | -0.537 |
| OR4K2 (GeneID 390431) | 0.55 |
| SSUH2 (GeneID 51066) | -1.24 (active) |
| ARID3B (GeneID 10620) | 1.55 (active) |
| TACR3 (GeneID 6870) | -0.558 |
| NBPF11 (GeneID 200030) | -1.09 (active) |
| PTGR2 (GeneID 145482) | -1.47 (active) |
| QDPR (GeneID 5860) | -0.585 |
| KLC1 (GeneID 3831) | 1.21 (active) |
| LDHB (GeneID 3945) | -1.03 (active) |
| ASTE1 (GeneID 28990) | -0.488 |
| EFNA1 (GeneID 1942) | 0.84 |
| ZSWIM3 (GeneID 140831) | -1.99 (active) |
| ZC2HC1C (GeneID 79696) | -0.237 |
| PDE6C (GeneID 5146) | -0.618 |
| GPRC6A (GeneID 222545) | 1.38 (active) |
| MRTO4 (GeneID 51154) | -0.378 |
| OR2B11 (GeneID 127623) | -0.384 |
| SUCO (GeneID 51430) | -0.126 |
| FIZ1 (GeneID 84922) | -0.76 |
| C2orf78 (GeneID 388960) | -2.6 (active) |
| MICALL1 (GeneID 85377) | -0.581 |
| ADGRF3 (GeneID 165082) | -0.716 |
| ADORA1 (GeneID 134) | -0.67 |
| NDRG3 (GeneID 57446) | -0.145 |
| KRT5 (GeneID 3852) | 0.211 |
| SH3BGRL3 (GeneID 83442) | -1.4 (active) |
| ZNF335 (GeneID 63925) | -1.06 (active) |
| SH2B3 (GeneID 10019) | -0.748 |
| CKAP4 (GeneID 10970) | -0.979 |
| TRAT1 (GeneID 50852) | -0.797 |
| GOLPH3 (GeneID 64083) | 0.28 |
| USE1 (GeneID 55850) | -0.528 |
| MS4A14 (GeneID 84689) | -0.646 |
| SLC22A8 (GeneID 9376) | -1.27 (active) |
| SREBF1 (GeneID 6720) | -2.13 (active) |
| RIC1 (GeneID 57589) | 0.976 |
| PTOV1 (GeneID 53635) | 0.129 |
| FAM9A (GeneID 171482) | 0.126 |
| PPAN (GeneID 56342) | 1.65 (active) |
| STAC2 (GeneID 342667) | 0.577 |
| GPR18 (GeneID 2841) | 2.55 (active) |
| NAA30 (GeneID 122830) | 1.2 (active) |

Records above whose target name begins with P or p (8):
| target gene | z-score vs non-targeting control |
| --- | --- |
| P2RY12 (GeneID 64805) | -1.13 (active) |
| PKP2 (GeneID 5318) | -0.534 |
| PEX11G (GeneID 92960) | -1.45 (active) |
| PIEZO2 (GeneID 63895) | -1.7 (active) |
| PTGR2 (GeneID 145482) | -1.47 (active) |
| PDE6C (GeneID 5146) | -0.618 |
| PTOV1 (GeneID 53635) | 0.129 |
| PPAN (GeneID 56342) | 1.65 (active) |
